Data reported in publication doi:10.1101/2025.01.16.633331.
Several values for one entry are separate records, joined by “and”; a condition that tells them apart may be missing. Equal values may be shown once.

Molecular target: His6-RBD-2-His6 (pSRK120), refolded from inclusion bodies (SARS-CoV-2) (UniProt P0DTC2)
Assay: SPR

## LCB1 miniprotein (designed binder)
  Kd: 3.02 nM and 10 nM
